A mixed list of measured activities; the numbers were collected in NIAID ChemDB.

Shared fields: target-level tests

a–b is a range or a potency band. An empty or dashed field is not shown. Lines come from different laboratories, so protocols vary. Inhibition is in % at the dose shown (toxicity tests: loss of growth or viability). ICn is the concentration giving n% inhibition.

SMILES,read-out,protein,tested at,organism,result
COc1ccc(-c2ccc(-c3ccnc4cc(C(=O)O)nn34)cc2)cc1,IC50,RNA-dependent RNA polymerase,-,Hepatitis C virus,>10 µM
Cc1ccc(-c2nc3ccc(-c4nc5cc(C(=O)O)ccc5n4C4CCCCC4)cc3nc2-c2ccc(C)cc2)cc1,inhibition,NS5B polymerase,100 µM,Hepatitis C virus,99.55%
O=C(O)CCNc1cc(-c2ccc(Cl)cc2)nc2cc(C(=O)O)nn12,IC50,RNA-dependent RNA polymerase,-,Hepatitis C virus,>10 µM
CNC(=O)c1c(-c2ccc(F)cc2)oc2cc(-c3cc(CO)on3)c(OC(C)C)cc12,IC50,Nonstructural protein 5B,-,Hepatitis C virus,≤0.5 µM
O=C(O)c1cnn2c(-c3ccccc3-c3ccc(Cl)cc3)ccnc12,IC50,RNA-dependent RNA polymerase,-,Hepatitis C virus,>10 µM
CC[C@@H](C=O)NC(=O)[C@H](CC(C)C)NC(=O)[C@@H](NC(=O)[C@@H](NC(=O)c1ccc2cnccc2n1)C(C)C)C(C)C,Ki,NS3 protease,-,Hepatitis C virus,1–100 µM
O=C(O)C1Cc2ccccc2CN1C(=O)c1ccc2c(c1)nc(-c1ccc3nc(-c4ccccc4)cnc3c1)n2C1CCCCC1,inhibition,NS5B polymerase,33 µM,Hepatitis C virus,94.81%
CC[C@@H](C=O)NC(=O)[C@H](CC(C)C)NC(=O)[C@@H](NC(=O)[C@@H](NC(=O)c1ccc(OC)nc1OC)C(C)C)C(C)C,Ki,NS3 protease,-,Hepatitis C virus,1–100 µM
N[C@H](C(=O)N[C@@H](CCC(=O)O)C(=O)N[C@@H](CCC(=O)O)C(=O)N[C@@H](CS)C(=O)O)C1CCCCC1,IC50,Nonstructural protein 3 NTPase/helicase,-,Hepatitis C virus,>167 µM
O=C(O)c1sc(-c2ccccc2)cc1NS(=O)(=O)c1ccc(F)cc1F,IC50,NS3 ATPase,-,Hepatitis C virus,<5 µM
CCNc1cc2oc(-c3ccc(F)cc3)c(C(=O)NC)c2c(Cl)c1OC,IC50,Nonstructural protein 5B,-,Hepatitis C virus,≤0.5 µM
Cc1ccc(C(=O)N(C)c2cc(-c3ccccc3)sc2C(=O)O)c(F)c1F,IC50,NS3 ATPase,-,Hepatitis C virus,<5 µM
CC(C)C[C@H](NC(=O)CCC(=O)O)C(=O)N[C@@H](CCC(=O)O)C(=O)N[C@@H](CCC(=O)O)C(=O)NC1(C(=O)O)CC1,IC50,Nonstructural protein 3 NTPase/helicase,-,Hepatitis C virus,>83.5 µM
O=C(O)c1sc(-c2ccccc2)cc1N(Cc1ccccc1Cl)C(=O)C1CCC1,IC50,NS3 ATPase,-,Hepatitis C virus,5–20 µM
CC(OC(=O)Nc1ccsc1-c1nc(C(=O)O)c(O)c(=O)[nH]1)c1ccccc1,IC50,HCV polymerase,-,Hepatitis C virus,<25 µM
CCc1ccnc2c(-c3nn[nH]n3)cnn12,IC50,RNA-dependent RNA polymerase,-,Hepatitis C virus,>10 µM
CC(C)N(C(=O)c1ccc(Cl)nc1Cl)c1cc(-c2ccccc2)sc1C(=O)O,IC50,NS3 ATPase,-,Hepatitis C virus,5–20 µM
COc1nc(Nc2ccc3[nH]ncc3c2)nc(NC2CC2)n1,inhibition,DNA polymerase,0.01 µg/mL,Hepatitis B virus,12%
C/C=C/C(=O)N(CC)c1cc(-c2ccccc2)sc1C(=O)O,IC50,NS3 ATPase,-,Hepatitis C virus,5–20 µM
CCC(C)[C@H](NC(=O)[C@@H](NC(=O)CCC(=O)O)C1CCCCC1)C(=O)N[C@@H](CCC(=O)O)C(=O)N[C@@H](CS)C(=O)O,inhibition,Nonstructural protein 3 NTPase/helicase,16.7 µM,Hepatitis C virus,48%
O=C(Cc1cccs1)Nc1ccsc1-c1nc(C(=O)O)c(O)c(=O)[nH]1,IC50,HCV polymerase,-,Hepatitis C virus,<25 µM
CC[C@H](C)[C@H](NC(=O)[C@@H](NC(=O)CCC(=O)O)C1CCCCC1)C(=O)N[C@@H](CC1CCCCC1)C(=O)NC1(C(=O)O)CC1,inhibition,Nonstructural protein 3 NTPase/helicase,167 µM,Hepatitis C virus,70%
O=C(NC(Cc1ccccc1)C(=O)O)c1ccc2c(c1)nc(-c1ccc3nc(-c4ccccc4)cnc3c1)n2C1CCCCC1,inhibition,NS5B polymerase,33 µM,Hepatitis C virus,95.92%
O=C(Nc1nn[nH]n1)c1cc2nc(-c3ccc(OCc4ccccc4)cc3)c(C3CCCCC3)c(=O)n2[nH]1,IC50,RNA-dependent RNA polymerase,-,Hepatitis C virus,<1 µM
COc1ccc(-c2ccc(Cl)cc2)c(-c2ccc3cc(-c4nc5cc(C(=O)O)ccc5n4CC4CCCO4)ccc3n2)c1,inhibition,NS5B polymerase,33 µM,Hepatitis C virus,99.17%
CCOC(=O)C1=CN(N2CCN(c3nc(Nc4ccc5[nH]ncc5c4)nc(OC)n3)CC2)C(SC)N=C1,inhibition,DNA polymerase,0.1 µg/mL,Hepatitis B virus,3%
O=C(CCc1ccccc1)Nc1ccccc1-c1nc(C(=O)O)c(O)c(=O)[nH]1,IC50,HCV polymerase,-,Hepatitis C virus,<100 µM
CNC(=O)c1c(-c2ccc(F)cc2)oc2cc(N(C(C)C)S(C)(=O)=O)c(OC)cc12,IC50,Nonstructural protein 5B,-,Hepatitis C virus,≤0.5 µM
O=C(Nc1cscc1-c1nc(C(=O)O)c(O)c(=O)[nH]1)NS(=O)(=O)c1cccc2ccccc12,IC50,HCV polymerase,-,Hepatitis C virus,<25 µM
CNC(=O)c1c(-c2ccc(F)cc2)oc2cc(S(=O)(=O)NC3CC3)c(OC(C)C)cc12,IC50,Nonstructural protein 5B,-,Hepatitis C virus,≤0.5 µM
Cc1nc(-c2ccc(Cl)cc2)sc1-c1ccc2cc(-c3nc4cc(C(=O)O)ccc4n3C3CCCCC3)ccc2n1,inhibition,NS5B polymerase,33 µM,Hepatitis C virus,100.7%
O=C(O)c1nc(-c2sccc2NC(=O)C(NC/C=C/c2ccccc2)c2ccccc2)[nH]c(=O)c1O,IC50,HCV polymerase,-,Hepatitis C virus,<25 µM
CC(C)Cc1ccc(-c2cc(NS(=O)(=O)c3cc(C#N)ccc3Cl)c(C(=O)O)s2)cc1,IC50,NS3 ATPase,-,Hepatitis C virus,>20 µM
CC[C@H](C=O)NC(=O)[C@@H](CC(C)C)NC(=O)[C@@H](NC(=O)[C@@H](NC(=O)c1ccc(O)c(CN2CCOCC2)c1)C(C)C)C(C)C,Ki,NS3 protease,-,Hepatitis C virus,1–100 µM
COc1nc(Nc2ccc3cn[nH]c3c2)nc(N2CCN(C)CC2)n1,inhibition,DNA polymerase,0.1 µg/mL,Hepatitis B virus,14%
Cc1ccccc1S(=O)(=O)Nc1cc(-c2ccc(C(=O)O)cc2)sc1C(=O)OC(C)(C)C,IC50,NS3 ATPase,-,Hepatitis C virus,5–20 µM
COc1nc(Nc2ccc3cn[nH]c3c2)nc(-n2ccnc2)n1,inhibition,DNA polymerase,0.01 µg/mL,Hepatitis B virus,11%
CNC(=O)c1c(-c2ccc(F)cc2)oc2cc(OCc3nnnn3C)c(OC)cc12,IC50,Nonstructural protein 5B,-,Hepatitis C virus,≤0.5 µM
COc1nc(Nc2ccc3[nH]ncc3c2)nc(N2CCCC2)n1,inhibition,Nonstructural protein 5B,1 µg/mL,Hepatitis C virus,40%
O=C(O)CCCC(=O)N[C@@H](CCC(=O)O)C(=O)N[C@@H](CCC(=O)O)C(=O)N[C@@H](CS)C(=O)O,inhibition,Nonstructural protein 3 NTPase/helicase,16.7 µM,Hepatitis C virus,29%
COc1nc(NCCCn2ccnc2)nc(Nc2ccc3[nH]ncc3c2)n1,inhibition,DNA polymerase,0.01 µg/mL,Hepatitis B virus,25%
Cc1cccc(-c2nc(C(=O)O)c(O)c(=O)[nH]2)c1,IC50,HCV polymerase,-,Hepatitis C virus,<100 µM
O=C(O)c1cnc2c(c1)nc(-c1ccc3nc(-c4ccccc4-c4ccc(Cl)cc4)ccc3c1)n2C1CCCCC1,inhibition,NS5B polymerase,33 µM,Hepatitis C virus,95.94%
COc1nc(NCCN2CCOCC2)nc(Nc2ccc3cn[nH]c3c2)n1,inhibition,DNA polymerase,1 µg/mL,Hepatitis B virus,79%
COC(=O)c1nc(-c2cscc2NC(=O)NS(=O)(=O)c2ccccc2Cl)[nH]c(=O)c1O,IC50,HCV polymerase,-,Hepatitis C virus,<50 µM
CC[C@H](NC(=O)[C@H](CC(C)C)NC(=O)[C@@H](NC(=O)[C@@H](NC(=O)c1cnccn1)C(C)C)C(C)C)C(=O)C(=O)N[C@H](CC)c1ccccc1,Ki,NS3 protease,-,Hepatitis C virus,1–100 µM
CNC(=O)c1c(-c2ccc(F)cc2)oc2cc(N(CC(C)O)S(C)(=O)=O)c(OC)cc12,IC50,Nonstructural protein 5B,-,Hepatitis C virus,≤0.5 µM
O=C(O)CCC(=O)N[C@H](C(=O)N[C@@H](CCC(=O)O)C(=O)N[C@@H](CCC(=O)O)C(=O)N[C@@H](CS)C(=O)O)C(c1ccccc1)c1ccccc1,inhibition,Nonstructural protein 3 NTPase/helicase,16.7 µM,Hepatitis C virus,97%
CC[C@H](NC(=O)[C@H](CC(C)C)NC(=O)[C@@H](NC(=O)[C@@H](NC(=O)[C@H](CC(=O)O)CC(=O)[C@H](CCC(=O)O)NC(C)=O)C(C)C)C(C)C)C(=O)C(=O)NCc1ccccc1,Ki,NS3 protease,-,Hepatitis C virus,<1 µM
O=C(Nc1ccccc1)Nc1cscc1-c1nc(C(=O)O)c(O)c(=O)[nH]1,IC50,HCV polymerase,-,Hepatitis C virus,<25 µM
O=C(O)CCCC(=O)N[C@H](C(=O)N[C@@H](CCC(=O)O)C(=O)N[C@@H](CCC(=O)O)C(=O)NC1(C(=O)O)CC1)C(c1ccccc1)c1ccccc1,IC50,Nonstructural protein 3 NTPase/helicase,-,Hepatitis C virus,>83.5 µM
CCCNC(=O)C(=O)[C@H](CC)NC(=O)[C@H](CC(C)C)NC(=O)[C@@H](NC(=O)[C@@H](NC(=O)[C@H](CC(=O)O)CC(=O)[C@H](CCC(=O)O)NC(C)=O)C(C)C)C(C)C,Ki,NS3 protease,-,Hepatitis C virus,<1 µM
Cc1ccccc1S(=O)(=O)Nc1cc(/C=C/c2ccccc2)sc1C(=O)O,IC50,NS3 ATPase,-,Hepatitis C virus,<5 µM
CC[C@@H](C=O)NC(=O)[C@@H]1C[C@@H](OC(=O)Nc2cc(OC)ccc2OC)CN1C(=O)[C@@H](NC(=O)[C@@H](NC(=O)c1cnccn1)C(C)C)C(C)C,Ki,NS3 protease,-,Hepatitis C virus,1–100 µM
CCOC(=O)C1=CN(N2CCN(c3nc(Nc4ccc5cn[nH]c5c4)nc(OC)n3)CC2)C(SC)N=C1,inhibition,DNA polymerase,0.1 µg/mL,Hepatitis B virus,17%
CC[C@@H](C=O)NC(=O)[C@@H]1C[C@@H](OC(=O)Nc2cccc(Cl)c2Cl)CN1C(=O)[C@@H](NC(=O)[C@@H](NC(=O)c1cnccn1)C(C)C)C(C)C,Ki,NS3 protease,-,Hepatitis C virus,1–100 µM
COc1nc(NCCCN2CCCC2=O)nc(Nc2ccc3cn[nH]c3c2)n1,inhibition,DNA polymerase,0.01 µg/mL,Hepatitis B virus,16%

A second listing of 6 rows from above:

SMILES | read-out | protein | tested at | organism | result
O=C(O)CCNc1cc(-c2ccc(Cl)cc2)nc2cc(C(=O)O)nn12 | IC50 | RNA-dependent RNA polymerase | - | Hepatitis C virus | >10 µM
Cc1ccc(C(=O)N(C)c2cc(-c3ccccc3)sc2C(=O)O)c(F)c1F | IC50 | NS3 ATPase | - | Hepatitis C virus | <5 µM
CNC(=O)c1c(-c2ccc(F)cc2)oc2cc(N(CC(C)O)S(C)(=O)=O)c(OC)cc12 | IC50 | Nonstructural protein 5B | - | Hepatitis C virus | ≤0.5 µM
COc1nc(Nc2ccc3[nH]ncc3c2)nc(N2CCCC2)n1 | inhibition | Nonstructural protein 5B | 1 µg/mL | Hepatitis C virus | 40%
CC(C)C[C@H](NC(=O)CCC(=O)O)C(=O)N[C@@H](CCC(=O)O)C(=O)N[C@@H](CCC(=O)O)C(=O)NC1(C(=O)O)CC1 | IC50 | Nonstructural protein 3 NTPase/helicase | - | Hepatitis C virus | >83.5 µM
COc1ccc(-c2ccc(Cl)cc2)c(-c2ccc3cc(-c4nc5cc(C(=O)O)ccc5n4CC4CCCO4)ccc3n2)c1 | inhibition | NS5B polymerase | 33 µM | Hepatitis C virus | 99.17%